# According to PubChem BioAssay AID504832 (National Center for Advancing Translational Sciences (NCATS), 2011):
# The entries are a selection whose mix differs from that of the whole data set. Inconclusive results are not listed. Activity calls are given as the source filed them. The call rests on the fitted dose curve; in most records, active means well fitted inhibition curve with a large enough effect; inconclusive means small, poorly fitted or top-dose-only effect, or another doubt; inactive means no such curve, though single readings can be large or run the other way.
# Experiment: Primary qHTS for delayed death inhibitors of the malarial parasite plastid, 48 hour incubation
# Settings: P. falciparum luciferase growth in erythrocytes; series mostly up to 28.7 µM; activity change, negative = inhibition: at the top concentration
# From the text: The goal of this screen is to discover new antimalarial compounds that act by inhibiting the development of the apicoplast in the malarial parasite Plasmodium falciparum. The biochemical processes that make this organelle essential for erythrocytic stage parasites are not well understood. However, antibiotics such as azithromycin and tetracycline, which target the apicoplast translational machinery, have a potent antimalarial effect.
# We have developed a cell-based assay that measures parasite growth based on the expression of an integrated copy of a firefly luciferase reporter. To detect small molecules that cause this "delayed death" phenotype, erythrocytes infected with the luciferase-expressing parasites were incubated with compounds for either one or two generations, corresponding to 48 and 96 hours, respectively. Compounds that inhibit parasite growth in the second generation, but not the first, should be enriched in antimalarials that target the apicoplast. Growth inhibition is detected by a decrease in luciferase activity.
# Assay Provider: David Fidock and Eric Ekland, Columbia University
# Keywords: NIH Roadmap, MLPCN, MLI, MLSMR, qHTS, NCGC, qHTS, malaria, luciferase, viability
# Four microliters of culture medium (RPMI 1640 with 0.5% w/v Albumax (GIBCO), 24 mM sodium bicarbonate and 10 ug/mL gentamycin) were dispensed by a Multi-drop Combi into white solid 1536-well plates (Grenier) and 23 nL compound was added by a pin tool. Four microliters of infected erythrocytes (2% hematocrit, 0.1% parasitemia final concentration) in culture medium were dispensed and the plates incubated for 48 hours at 37 C in 5% CO2. Two microliters of luciferase detection reagent was added and luminescence was detected by a ViewLux (PerkinElmer) reader.
# On the % scale 0 is the no-effect control and ±100 the full control effect; potency means the concentration at half of the fitted maximal effect.
SMILES,Potency,"activity change, negative = inhibition"
CCOC(=O)Nc1ccc([As](=O)(O)O)c(O)c1,active: 6.57 µM,–
Cc1cc(SC(NC(=O)c2ccccc2)C(Cl)(Cl)Cl)nc(C(C)C)n1 (configuration not stated),–,inactive: 11.5%
CCOC(=O)Nc1cccc([As](=O)(O)O)c1,active: 3.7 µM,–
O=P(Nc1ccccn1)(c1cccc2ccccc12)c1cccc2ccccc12,–,inactive: -11.6%
Cc1cc(SC(NC=O)C(Cl)(Cl)Cl)ncn1 (configuration not stated),–,inactive: 11.4%
O=[N+]([O-])c1ccc(Nc2ccc(Oc3ccc([N+](=O)[O-])cc3[N+](=O)[O-])cc2)c([N+](=O)[O-])c1,–,inactive: 5.16%
COP1(=S)c2c(C)nn(CCC#N)c2N=C(c2ccc(F)cc2)N1C (configuration not stated),–,inactive: -16.5%
O=C(COc1ccccc1)OC1CN2CCC1CC2 (configuration not stated),–,inactive: -8.12%
O=C(OC1CN2CCC1CC2)c1cccc([N+](=O)[O-])c1 (configuration not stated),–,inactive: 24.6%
CCOC(=O)c1ccc(NC(=O)C(C)(CCl)SC)cc1 (configuration not stated),–,inactive: 69.3%
Cc1c2c(nc3ccccc13)SC(C(Cl)Cl)C2 (configuration not stated),–,inactive: 12.8%
COc1ccc2nc(NP(=O)(c3ccccc3)c3ccccc3)sc2c1,–,inactive: -26.9%
COc1cc(I)ccc1[As](=O)(O)O,active: 1.85 µM,–
COc1ccc(N/C(=N/P(=O)(N2CCOCC2)N2CCOCC2)N2CCOCC2)cc1,–,inactive: 11.5%
O=[As](O)(c1ccc(O)cc1)c1ccccc1O,active: 4.65 µM,–
C[As](=O)(O)c1cccc(C(=O)O)c1,–,inactive: 42.1%
Cc1ccc(OP(=O)(Nc2ccc([N+](=O)[O-])cn2)Oc2ccc(C)cc2)cc1,–,inactive: 70.6%
Cc1ccc2nc3c(c(C)c2c1)CC(C(Cl)Cl)S3 (configuration not stated),–,inactive: 43.4%
ClCCSc1nnc(-c2cccnc2)o1,–,inactive: 68.5%
O=P(Nc1nccs1)(Oc1ccccc1)Oc1ccccc1,–,inactive: 0%
CS(=O)(=O)c1cc([N+](=O)[O-])c2no[n+]([O-])c2c1,–,inactive: -5.61%
O=C(O)COc1ccc([As](=O)(O)O)cc1[N+](=O)[O-],–,inactive: -0.669%
NC(=O)Nc1ccc([As](=O)(O)O)cc1,–,inactive: -25.8%
N#CCCN(C(=O)COC(=O)C(O)(c1ccccc1)c1ccccc1)c1ccc(F)cc1,–,inactive: -1.36%
O=C(OC1CN2CCC1CC2)c1ccc(Cl)cc1 (configuration not stated),–,inactive: -8.56%

SMILES,Potency,"activity change, negative = inhibition"
CS(=O)(=O)c1ccc(Cl)c(NC(=O)COC(=O)C(O)(c2ccccc2)c2ccccc2)c1,–,inactive: 10.1%
Cc1cccc(OCC(=O)OC2CN3CCC2CC3)c1 (configuration not stated),–,inactive: -7.26%
Nc1cccc2c([As](=O)(O)O)cccc12,active: 1.04 µM,–
CCCOP(=S)(Nc1nc(N)cc(=O)[nH]1)OCCC,–,inactive: -6.3%
COc1cc(C2NCCC3(OCCO3)C2(C)C)cc(OC)c1OC (configuration not stated),–,inactive: -16.7%
CCOP(=O)(Nc1cccc2ccccc12)OCC,–,inactive: -8.26%
O=P1(Nc2ccccn2)COc2ccccc2OC1,–,inactive: 0.274%
CCOP(=O)(Nc1ccc(C)cn1)OCC,–,inactive: -4.04%
Clc1n[nH]nc1-c1nn[nH][15n]1,–,inactive: 16.7%
CC(C)/C=N\N=C(\N)N[N+](=O)[O-],–,inactive: 7.84%
O=[As](O)(c1ccccc1Br)c1ccccc1Br,–,inactive: -9.75%
C=C(C=O)CC1CC(O)[C@]2(C)OC3CC4OC5C[C@]6(C)O[C@]7(C)CCC8OC9C[C@]%10(C)OC%11C(C)=CC(=O)OC%11CC%10OC9C[C@@H](C)C8OC7CC6O[C@]5(C)CC5OC5C4OC3CC2O1 (some centres not stated),active: 1.85 µM,–
Cc1ccc(C(=O)OC2CN3CCC2CC3)cc1 (configuration not stated),–,inactive: 3.58%
O=C(/C=C/c1ccccc1)OC1CN2CCC1CC2 (configuration not stated),–,inactive: -9.93%
Nc1cccc([As](=O)(O)c2ccccc2)c1,active: 3.29 µM,–
O=P1(Nc2ccc(Br)cn2)COc2ccccc2OC1,–,inactive: 11.3%
NS(=O)(=O)c1cccc(NC(=O)COC(=O)C(O)(c2ccccc2)c2ccccc2)c1,–,inactive: -8.24%
Cc1ccc(OCC(=O)OC2CN3CCC2CC3)cc1 (configuration not stated),–,inactive: 5.9%
O=[As](O)(c1cccs1)c1cccs1,active: 10.4 µM,–
O=P(Nc1ccccn1)(c1ccc(Br)cc1)c1ccc(Br)cc1,–,inactive: -19.5%
O=P(Nc1nc2ccccc2s1)(c1ccccc1)c1ccccc1,–,inactive: -11.1%
C[C@H]1OP(=O)(Oc2ccccc2)[C@H](O)[C@H](O)[C@H]1N=[N+]=[N-] (some centres not stated),–,inactive: 5.96%
O=[As](O)(c1ccccc1)c1ccc(O)cc1,active: 1.31 µM,–
O=[N+]([O-])c1ccc(O)c(/C=N/Nc2ccc([N+](=O)[O-])cc2[N+](=O)[O-])c1,–,inactive: 0%
O=[N+]([O-])c1ncn(CCn2cnc([N+](=O)[O-])n2)n1,–,inactive: 16.4%

SMILES,Potency,"activity change, negative = inhibition"
O=C(OC1CN2CCC1CC2)c1cccc(Cl)c1 (configuration not stated),–,inactive: 28.4%
Nc1ccc([As](=O)(O)c2ccc([N+](=O)[O-])cc2)cc1,active: 13.1 µM,–
C(Cc1nn[nH]n1)Cc1nn[nH]n1,–,inactive: 3.72%
CC(C)C(=O)NC(Sc1ccccc1)C(Cl)(Cl)Cl (configuration not stated),–,inactive: 2.49%
O=P(Nc1nccs1)(c1ccccc1)c1ccccc1,–,inactive: 6.94%
c1nnnn1CCn1cnnn1,–,inactive: 9.47%
CCOc1ccc(C2=NCC(CBr)S2)cc1 (configuration not stated),–,inactive: 75.1%
CC(C)(C)C(=O)NC(Sc1ccccc1)C(Cl)(Cl)Cl (configuration not stated),–,inactive: -10.3%
C[C@@H]1C=CCP(=O)(Oc2ccccc2)O1 (some centres not stated),–,inactive: 1.98%
C[C@H]1OP(=O)(Oc2ccccc2)C[C@@H]2O[C@@H]21 (some centres not stated),–,inactive: 27.4%
CC(=O)c1ccc(N2CC2c2ccncc2)cc1 (configuration not stated),–,inactive: 0.0449%
CC(=O)Nc1ccc([As](=O)(O)O)c(O)c1,active: 4.15 µM,–
CC(=O)Nc1ccc(Oc2c([N+](=O)[O-])cc([N+](=O)[O-])cc2[N+](=O)[O-])cc1,–,inactive: 9.64%
Cc1ccc(NP(=O)(Oc2cccc(C)c2)Oc2cccc(C)c2)nc1,–,inactive: 8.54%
CCOC(=O)NC(Sc1ccccc1)C(Cl)(Cl)Cl (configuration not stated),–,inactive: 15.5%
CCNC(=S)/N=C(\N)N[N+](=O)[O-],–,inactive: 7.58%
O=C(NC1CCS(=O)(=O)C1)NP(=S)(Oc1ccccc1)Oc1ccccc1 (configuration not stated),–,inactive: 0%
O=C(OC1CN2CCC1CC2)c1ccccc1 (configuration not stated),–,inactive: 4.09%
CCC(=O)N1C2C3N(C(=O)CC)C1C1N(C(=O)CC)C(C(N1C(=O)CC)N3C(=O)CC)N2C(=O)CC,–,inactive: -19.6%
COC(=O)c1cc2c(s1)N=C(c1ccccc1)N(C)P2(=O)N1CCOCC1 (configuration not stated),–,inactive: -13.1%
Cc1ccccc1OP(=O)(Nc1ccccn1)Oc1ccccc1C,–,inactive: -21.7%
O=C(O)c1ccccc1[As](=O)(O)O,active: 0.329 µM,–
CC(=O)Nc1ccc([As](=O)(O)O)cc1,active: 5.22 µM,–
CCOP(=O)(Nc1ccccc1)OCC,–,inactive: 0.765%
Cc1cc(SC(NC(=O)c2ccc(F)cc2)C(Cl)(Cl)Cl)ncn1 (configuration not stated),–,inactive: 3.71%

SMILES,Potency,"activity change, negative = inhibition"
Cc1ccc(NP(=O)(Oc2ccccc2F)Oc2ccccc2F)nc1,–,inactive: 14.4%
O=[N+]([O-])c1cc([N+](=O)[O-])c(CCN2CCOCC2)c([N+](=O)[O-])c1,–,inactive: -12.5%
Nc1cccc2ccc([As](=O)(O)O)cc12,active: 6.57 µM,–
CCN(N=Nc1nonc1N)c1nonc1N,–,inactive: 13.8%
Cc1ccc(N/C(=N/P(=O)(N2CCOCC2)N2CCOCC2)N2CCOCC2)cc1,–,inactive: -16.2%
NC(=O)c1cc([N+](=O)[O-])cc([N+](=O)[O-])c1N,–,inactive: 13.2%
CN1CCCC(OC(=O)C(c2ccccc2)c2ccccc2)C1 (configuration not stated),–,inactive: -17%
COc1ccccc1OP(=O)(Nc1ccc(C)cn1)Oc1ccccc1OC,–,inactive: -3.12%
Cc1ccc(OP(=O)(Nc2nccs2)Oc2ccc(C)cc2)cc1,–,inactive: -9.24%
Cc1c2non([O-])c-2c(C)[n+](=O)[n+]1[O-],–,inactive: -15.8%
O=C(NC(Sc1ccncn1)C(Cl)(Cl)Cl)c1ccccc1 (configuration not stated),–,inactive: 10.2%
CC(C)CC(=O)NC(Sc1ccc(Cl)cc1)C(Cl)(Cl)Cl (configuration not stated),–,inactive: 22.1%
Nc1cc(N)c2nonc2c1[N+](=O)[O-],–,inactive: 4.96%
COc1ccc(C2=NCC(CBr)S2)cc1 (configuration not stated),–,inactive: 1.22%
CC(=O)N1C2C3N(C(C)=O)C1C1N(C(C)=O)C(C(N1C(C)=O)N3C(C)=O)N2C(C)=O,–,inactive: 7.94%
CCN(/C(=N/P(=O)(N1CCOCC1)N1CCOCC1)N1CCOCC1)c1ccc(OC)cc1,–,inactive: 9.51%
CC(C)=N/N=C(\N)N[N+](=O)[O-],–,inactive: 32.5%
CN(C)C(=O)OCCc1n(C)cc[n+]1C,–,inactive: 3.86%
O=[N+]([O-])c1ncn(CCn2ncnc2[N+](=O)[O-])n1,–,inactive: 3.18%
CC(C)(C)C(=O)NC(Sc1ccncn1)C(Cl)(Cl)Cl (configuration not stated),–,inactive: 6.82%
O=C(O)CNc1ccc([As](=O)(O)O)cc1,–,inactive: 12.5%
O=[N+]([O-])c1cccc(NC2=NCC(CBr)S2)c1 (configuration not stated),–,inactive: 8.88%
